Results of unrelated studies side by side (data: NIAID ChemDB).

Common to all: tests in culture; agent: Mycobacterium avium

An empty or dashed field is not shown. ECn: concentration that inhibits the pathogen or its effect by n%. Conditions beyond the fields shown may differ between rows. A number after MIC or MFC names an inhibition level or a share of isolates.

| smiles | strain | read by | read-out | result |
|---|---|---|---|---|
| CCCSc1ncnc2ccccc12 | CNCTC MY66/72 | - | MIC | 63 µM |
| Cc1ccc(/C=N/N=C(\N)c2ccncc2)c(C)c1 | Isoniazid/rifampicin/ofloxacin-resistant | - | MIC | 64 µg/mL |
| NC(=O)c1cnccn1 | ATCC 25291 | - | MBC | >200 µg/mL |
| Clc1ccc(C(Cn2ccnc2)NCc2ccc(-c3ccccc3)cc2)c(Cl)c1 | 103317 | - | MIC | 18.9 µM |
| CC[C@H]1OC(=O)[C@H](C)[C@@H](O[C@H]2C[C@@](C)(OC)[C@@H](O)[C@H](C)O2)[C@H](C)[C@@H](O[C@@H]2O[C@H](C)C[C@H](N(C)C)[C@H]2O)[C@](C)(O)C[C@@H](C)CN(C)[C@H](C)[C@@H](O)[C@]1(C)O | - | - | Median MIC | 8 µg/mL |
| CCCCCCCCC#Cc1cn(COC(CO)CO)c(=O)[nH]c1=O | ATCC 25291 | - | EC50 | >50 µg/mL |
| CCCCCCCCCCOc1ccc(NC(=O)OCCN(C)C)cc1 | MY330/88 | - | MIC | 4 µM |
| S=c1oc2c(Cl)cc(Cl)cc2c(=S)n1-c1ccccc1 | 330/88 | - | MIC | 62 µM |
| CC[C@H]1OC(=O)[C@H](C)C(=O)[C@H](C)[C@@H](O[C@@H]2O[C@H](C)C[C@H](N(C)C)[C@H]2O)[C@](C)(OC)C[C@@H](C)C(=O)[C@H](C)[C@H]2N(CCCCn3cnc(-c4cccnc4)c3)C(=O)O[C@]12C | ATCC 25291 | - | MIC | 1.25 µg/mL |
| CC(C)(C)OCOC(=O)c1cnccn1 | ATCC 25291 | - | MIC | 25 µg/mL |
| CS/C(N)=N/NC(=O)c1ccc(Cl)cc1 | ATCC 19421 | - | MIC | >100 µg/mL |
| CC[C@H]1OC(=O)[C@H](C)[C@@H](O[C@H]2C[C@@](C)(OC)[C@@H](O)[C@H](C)O2)[C@H](C)[C@@H](O[C@@H]2O[C@H](C)C[C@H](N(C)C)[C@H]2O)[C@](C)(O)C[C@@H](C)/C(=N\OCOCCOC)[C@H](C)[C@@H](O)[C@]1(C)O | - | - | Median MIC | 4 µg/mL |
| Clc1ccc(/C(Cn2ccnc2)=N/OC/C=C/c2ccccc2)c(Cl)c1 | 103317 | - | MIC | 20.7 µM |
| O=C(Nc1ccc(Cl)cc1)c1ccccc1O | CNCTC MY330/88 | - | MIC | 31 µM |
| [N-]=[N+]=NC(CBr)c1cn(COC(CO)CO)c(=O)[nH]c1=O | ATCC 25291 | - | EC50 | >100 µg/mL |
| CCSc1ccnc(C(N)=S)c1 | 80/72 | - | MIC | 250 µM |
| N#Cc1ccc(NC(=O)c2cc(Br)ccc2O)cc1 | CNCTC MY330/88 | - | MIC | 8 µM |
| N/C(=N\N=C\c1ccccc1Cl)c1ccncc1 | Isoniazid/rifampicin/ofloxacin-resistant | - | MIC | 16 µg/mL |
| Fc1ccc(/C(Cn2ccnc2)=N\OCc2ccccc2)cc1 | 103317 | - | MIC | 12.9 µM |
| CC(C)CSc1ncnc2ccccc12 | D 5/93 | - | MIC | 125 µM |
| CCc1cn(COCCO)c(=O)[nH]c1=O | ATCC 25291 | - | EC50 | >100 µg/mL |
| Clc1ccc(C(Cn2ccnc2)OCc2ccc(-c3ccccc3)cc2)cc1 | 103317 | - | MIC | 5.15 µM |
| C=CCS/C(N)=N\N=C\c1ccc(F)cc1 | Clinical isolates | - | MIC90 | 12.5 µg/mL |
| S=c1[nH]c2ccccc2c(=S)n1-c1ccccc1 | 330/88 | - | MIC | >64 µM |
| C(/C=C/c1ccccc1)=Nc1ccccc1CN1CCOCC1 | 103317 | - | MIC | 16 µg/mL |
| CCc1cc(C(N)=S)ccn1 | - | - | MIC | 10 µg/mL |
| c1ccc(-c2ccc(CNc3ccccc3N3CCSCC3)cc2)cc1 | 103317 | - | MIC | 85.5 µM |
| CCCCSc1ncnc2ccccc12 | CNCTC MY66/72 | - | MIC | 32 µM |
| O=c1cc(-c2ccccc2)c2ccc(Cl)cc2o1 | ATCC 15769 | resazurin | MIC90 | >100 µg/mL |
| COc1ccc(C(=O)NNC(N)=S)cc1 | ATCC 19421 | - | MIC | >100 µg/mL |
| Clc1ccc(/C(Cn2ccnc2)=N/OCc2ccc(-c3ccccc3)cc2)c(Cl)c1 | 103317 | - | MIC | 18.3 µM |
| S=c1[nH]c2ccccc2c(=S)n1-c1ccc(Cl)c(Cl)c1 | 330/88 | - | MIC | 64 µM |
| CCCCCCSc1ccnc(C(N)=S)c1 | 80/72 | - | MIC | 30 µM |
| CCCCCCCCCCCCCCCCSc1ncnc2ccccc12 | CNCTC MY66/72 | - | MIC | >1000 µM |
| NC(=S)NNC(=O)c1ccc(Cl)cc1Cl | ATCC 19421 | - | MIC | >100 µg/mL |
| CCCCOc1ccc(NC(=O)OCCN2CCCCC2)cc1 | MY330/88 | - | MIC | 125 µM |
| C(=C\c1ccccc1)/CNc1ccccc1CN1CCOCC1 | 103317 | - | MIC | >64 µg/mL |
| O=C(Nc1ccc(Cl)c(Cl)c1)c1cc([N+](=O)[O-])ccc1O | CNCTC MY330/88 | - | MIC | 62.5 µM |
| CCCCCCCOc1cccc(NC(=O)OCCN2CCCCCC2)c1 | MY330/88 | - | MIC | 16 µM |
| c1ccc(CSc2ncnc3ccccc23)cc1 | D 5/93 | - | MIC | 63 µM |
| O=C(Nc1ccc([N+](=O)[O-])cc1)c1ccccc1O | CNCTC MY330/88 | - | MIC | 31 µM |
| CC(C)=CCC1=C(O)c2ccccc2C(=O)C1=O | - | resazurin | MIC | 32 µg/mL |
| CCC(C)Sc1ccnc(C(N)=S)c1 | 80/72 | - | MIC | 125 µM |
| S=c1[nH]c2ccccc2c(=S)n1-c1ccc(Cl)cc1 | 330/88 | - | MIC | >64 µM |
| N/C(=N\N=C\c1ccccc1Br)c1ccncc1 | Isoniazid/rifampicin/ofloxacin-resistant | - | MIC | 64 µg/mL |
| CCCCCCCOc1ccc(NC(=O)OCCN2CCCCCC2)cc1 | MY330/88 | - | MIC | 8 µM |
| C=Cc1cn(COCCO)c(=O)[nH]c1=O | ATCC 25291 | - | EC50 | >100 µg/mL |
| O=C(Nc1ccc(F)cc1)c1cc(Br)ccc1O | CNCTC MY330/88 | - | MIC | 31 µM |
| CCOc1ccc(NC(=O)OCC[NH+]2CCCC2)cc1 | MY330/88 | - | MIC | >1000 µM |
| Cc1ccc(-n2c(=O)oc3ccccc3c2=O)cc1 | CNCTC MY330/88 | - | MIC | 31 µM |
| COc1cc(C(=O)N/N=C(\N)SC)cc(OC)c1OC | ATCC 19421 | - | MIC | >100 µg/mL |
| [N-]=[N+]=NC(CBr)c1cn(COCCO)c(=O)[nH]c1=O | ATCC 25291 | - | EC50 | <50 µg/mL |
| Fc1ccc(/C(Cn2ccnc2)=N\OC/C=C/c2ccccc2)cc1 | 103317 | - | MIC | 23.8 µM |
| O=c1[nH]c(=O)n(COCCO)cc1[N+](=O)[O-] | ATCC 25291 | - | EC50 | >100 µg/mL |
| S=c1[nH]c2ccccc2c(=S)n1-c1ccc(Br)cc1 | 330/88 | - | MIC | >64 µM |
| C=CCS/C(N)=N/NC(=O)c1ccc([N+](=O)[O-])cc1 | ATCC 19421 | - | MIC | >100 µg/mL |
| Cc1ccc(-n2c(=O)oc3cc(Cl)ccc3c2=O)cc1 | CNCTC MY330/88 | - | MIC | 8 µM |
| Clc1ccc(CNc2ccc(-n3ccnc3)cc2)cc1 | 103317 | - | MIC | 13.4 µM |
| CN1CCN(Cc2ccc(N=C/C=C/c3ccccc3)cc2)CC1 | 103317 | - | MIC | 16 µg/mL |
| [N-]=[N+]=NC(CI)c1cn(COCCO)c(=O)[nH]c1=O | ATCC 25291 | - | EC50 | 10 µg/mL |
| CCCCCCCOc1cccc(NC(=O)OCC[NH+]2CCCC2)c1 | MY330/88 | - | MIC | 16 µM |
| CC1COc2c(N3CCN(C)CC3)c(F)cc3c(=O)c(C(=O)O)cn1c23 | ATCC 25291 | - | Median MIC | >8 µg/mL |
| O=c1oc2ccc(F)cc2c(=O)n1-c1ccc(Cl)c(Cl)c1 | CNCTC MY330/88 | - | MIC | 8 µM |
| Cc1ccc(C(=O)Nc2ccc(Cl)c(Cl)c2)c(O)c1 | CNCTC MY330/88 | - | MIC | 8 µM |
| O=c1oc2cc(Cl)ccc2c(=O)n1-c1ccc(Br)cc1 | CNCTC MY330/88 | - | MIC | 8 µM |
| NC[C@H]1O[C@H](O[C@H]2[C@H](O)[C@@H](O[C@H]3O[C@H](CO)[C@@H](O)[C@H](N)[C@H]3O)[C@H](N)C[C@@H]2N)[C@H](O)[C@@H](O)[C@@H]1O | ATCC 25291 | - | Median MIC | 2.5 µg/mL |
| CCOC(=O)c1ccc(NC(=O)c2cc(C)ccc2O)cc1 | CNCTC MY330/88 | - | MIC | >1000 µM |
| C=CCS/C(N)=N/NC(=O)c1ccc(Cl)cc1 | ATCC 19421 | - | MIC | >100 µg/mL |

A second listing of 4 rows from above:

smiles,strain,read by,read-out,result
Cc1ccc(-n2c(=O)oc3ccccc3c2=O)cc1,CNCTC MY330/88,-,MIC,31 µM
c1ccc(CSc2ncnc3ccccc23)cc1,D 5/93,-,MIC,63 µM
COc1ccc(C(=O)NNC(N)=S)cc1,ATCC 19421,-,MIC,>100 µg/mL
CC(C)CSc1ncnc2ccccc12,D 5/93,-,MIC,125 µM